Pooled drug test results. Numbers come from NIAID ChemDB, via PubChem.

All rows: whole-cell or culture tests; species: Staphylococcus aureus

Blank or dashed fields: not listed here. Rows are shuffled and stem from different studies. A number after MIC or MFC names an inhibition level or a share of isolates.

structure,read-out,strain,value
NC1CCN(c2nc3c(cc2F)c(=O)c(C(=O)O)cn3-c2ccc(F)cc2F)C1,MIC90,25 strains (ofloxacin-resistant),32 µg/mL
NC(=O)c1ccc(F)cc1SSc1cc(F)ccc1C(N)=O,MIC,ATCC 6538,2.5 µg/mL
CC(=O)OC[C@H]1O[C@@H](Oc2cc3c(cc2C(C)C)CC[C@H]2C(C)(C)CCC[C@]32C)[C@H](OC(C)=O)[C@@H](OC(C)=O)[C@@H]1OC(C)=O,MIC,-,>32 µg/mL
CC(=O)Oc1ccc2c(c1C(C)C)[C@@H]1O[C@@H]1[C@H]1C(C)(C)CCC[C@]21C,MIC,Methicillin-resistant,>32 µg/mL
CC(C)c1cc2c(cc1OS(=O)(=O)C(F)(F)F)[C@@]1(C)CCCC(C)(C)[C@@H]1CC2,MIC,-,>32 µg/mL
O=c1[nH]sc2c(C(F)(F)F)cccc12,MIC,ATCC 6538,30 µg/mL
CC[C@H](N)C1CCN(c2c(F)cn3c(=O)c(C(=O)O)cc(C4CC4)c3c2C)C1,MIC,1775 (ciprofloxacin-resistant),0.05 µg/mL
CC(C)c1c(O)ccc2c1[C@H](O)C[C@H]1C(C)(C)CCC[C@]21C,MIC,Methicillin-resistant,32 µg/mL
Cc1c(N2CC[C@H](N)C2)c(F)cn2c(=O)c(C(=O)NCC(=O)O)cc(C3CC3)c12,MIC,1775 (ciprofloxacin-resistant),>100 µg/mL
CCCc1c(O)ccc2c1CC[C@H]1C(C)(C)CCC[C@]21C,MIC,-,2 µg/mL
CCCCNC(=O)c1c(F)cccc1SSc1cccc(F)c1C(=O)NCCCC,MIC,ATCC 6538,50 µg/mL
COc1cc2c(cc1C(C)C)CC[C@H]1C(C)(C)CCC[C@]21C,MIC,-,>32 µg/mL
NC(=O)c1c(F)cccc1SSc1cccc(F)c1C(N)=O,MIC,ATCC 6538,50 µg/mL
CC(C)c1c(O)ccc2c1C(=O)C=C1C(C)(C)CCC[C@@]12C,MIC,Methicillin-resistant,>32 µg/mL
O=c1[nH]sc2cccc(C(F)(F)F)c12,MIC,ATCC 6538,30 µg/mL
CN(C)c1ccc(O)c2c1C[C@H]1C[C@H]3[C@H](N(C)C)C(=O)C(C(N)=O)=C(O)[C@@]3(O)C(=O)C1=C2O,MIC50,25 strains (ofloxacin-resistant),8 µg/mL
CCO[C@@H]1C[C@H]2C(C)(C)CCC[C@]2(C)c2ccc(O)c(C(C)C)c21,MIC,Methicillin-resistant,2 µg/mL
CO[C@H]1/C=C/O[C@@]2(C)Oc3c(C)c(O)c4c(O)c(c(/C=N/N5CCN(C)CC5)c(O)c4c3C2=O)NC(=O)/C(C)=C\C=C\[C@H](C)[C@H](O)[C@@H](C)[C@@H](O)[C@@H](C)[C@H](OC(C)=O)[C@@H]1C,MIC,209P,0.0078 µg/mL
CCCCCCCC(CCCCCCC)CC(=O)O,MIC,-,200 µM
Cc1c(N2CCC3(CCC[C@@H]3N)C2)c(F)cn2c(=O)c(C(=O)O)cc(C3CC3)c12,MIC,NCTC10649,0.02 µg/mL
Cc1onc(-c2ccccc2)c1C(=O)N[C@@H]1C(=O)N2[C@@H]1SC(C)(C)[C@@H]2C(=O)O,MIC90,24 strains (ofloxacin-susceptible),>128 µg/mL
COc1cc2oc(=O)ccc2cc1CC(O)C(C)(C)O,MIC,MRSA,250 µg/mL
CCCN1CCN(c2cc(=O)c3nc4c(oc3c2)c2c(=O)c3c(O)c(C)c5c(c34)=C(O)[C@@](C)(O/C=C/[C@H](OC)[C@@H](C)[C@@H](OC(C)=O)[C@H](C)[C@H](O)[C@H](C)[C@@H](O)[C@@H](C)/C=C/C=C(/C)C(=O)N2)O5)CC1,MIC,SMITH,0.002 µg/mL
C[C@H](CCC(=O)O)[C@H]1CC[C@H]2[C@@H]3CC[C@@H]4C[C@H](O)CC[C@]4(C)[C@H]3C[C@H](O)[C@]12C,MIC,-,2000 µM
CC1(C)CCC[C@]2(C)c3ccc(O)cc3CCC12,MIC,-,8 µg/mL
C[C@H]1NCc2cc(-c3ccc4c(=O)c(C(=O)O)cn(C5CC5)c4c3OC(F)F)ccc21,MIC90,24 strains (ofloxacin-susceptible),0.03 µg/mL
CCCCn1sc2ccc(F)cc2c1=O,MIC,ATCC 6538,10 µg/mL
CCc1c(O)ccc2c1CC[C@H]1C(C)(C)CCC[C@]21C,MIC,-,2 µg/mL
CC[C@H](NC)C1CCN(c2c(F)cn3c(=O)c(C(=O)O)cc(C4CC4)c3c2C)C1,MIC,NCTC10649,0.005 µg/mL
CCCCCCCCCCCCC(C(=O)O)c1ccccc1,MIC,-,200 µM
C[C@H]1C[C@H](N)CN1c1cc2c(cc1F)c(=O)c(C(=O)O)cn2-c1ccc(F)cc1F,MIC,NCTC10649,0.03 µg/mL
CCCCn1sc2ccc(C(F)(F)F)cc2c1=O,MIC,ATCC 6538,40 µg/mL
NC1CCN(c2c(F)cc3c(=O)c(C(=O)O)cn(C4CC4)c3c2F)C1,MIC,NCTC10649,0.1 µg/mL
CC(C)c1cc2c(cc1O[C@H]1O[C@H](CO)[C@H](O)[C@H](O)[C@H]1O)[C@@]1(C)CCCC(C)(C)[C@@H]1CC2,MIC,-,32 µg/mL
CCCCNC(=O)c1ccc(F)cc1SSc1cc(F)ccc1C(=O)NCCCC,MIC,ATCC 6538,15 µg/mL
CC(C)c1c(O)ccc2c1C=C[C@H]1C(C)(C)CCC[C@]21CO,MIC,Methicillin-resistant,32 µg/mL